{
  "source": "paper PMC7694997",
  "system": "CSCCC(=O)C(=O)O",
  "assay": "purified protein",
  "settings": "aminotransferase domain, 5 mM phenylalanine, 1-40 mM KMTB, 50 nM enzyme, 100 mM ammonium bicarbonate pH 7.4",
  "data": [
    {"substance": "MpMetRS (M568A, full length) (Malacoplasma penetrans HF-2; M568A)", "values": [
      {"measurement": "Km", "value": "4.1 ± 0.3", "unit": "mM"}
    ]}
  ]
}
